Experimental data as given in US11639348B2, “Compositions and methods for neuraminidase detection and quantification” (priority 2018, dated 2023).

Target: A/Australia/1997 G70C H1N9 NA (Influenza A virus, UniProt P03472)
Conditions: A/Australia/1997 G70C H1N9, 30° C., pH 7.6

## CC(=O)NC1C(NC(=N)N)C(F)C(Oc2c(F)cc3c(C)cc(=O)oc3c2F)(C(=O)O)OC1[C@H](O)[C@H](O)CO (stereo partly drawn) [compound 3, 5-Acetamido-4-guanidine-3-fluoro-3,4,5-trideoxy-2α-(4-methyl-6,8-difluoromethylumbelliferyl)-D-glycero-D-galactononulopyranosylnoic acid]
  Km: 218 µM
  kcat: 155.6 s⁻¹
